PubChem BioAssay AID1224833 – University of Georgia – 2016

- Test: 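Host factors restraining rotavirus as candidate antiviral genes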 (primary screen)
- Cells: monkey MA104 kidney cells
- Knock-down reagent: siRNA pool against human genes, 50 nM
- Duration: 48 h knock-down before infection; read 24 h after infection
- Challenge: infection with rotavirus strain RV3 two days after transfection; infectious dose for this stage not given
- Measurement: 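Rotavirus antigen per well by fluorescent immunoassay, normalised to non-targeting control wells on each plate and given as a standard z-score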
- Reading the numbers: z-score vs non-targeting control: higher = more rotavirus replication than with non-targeting control
- Hit rule: In these data the active calls have z-score vs non-targeting control at about -1 or lower, or at about 1 or higher
- Calls: active = z-score beyond 1 either way; inactive = z-score within 1 of zero
Here is a random part of about 12,000 reagents tested. About 5,600 of them (46%) count as active. 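Active calls cover z-scores past 1 in both directions, so they include lowered as well as raised rotavirus replication.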

ICA1 (GeneID 3382) showed z-score vs non-targeting control -0.927; inactive.
MAGOHB (GeneID 55110) showed z-score vs non-targeting control 1.86; active.
OR5M1 (GeneID 390168) scored z-score vs non-targeting control -0.216; inactive.
Knock-down of BCL2 (GeneID 596) gave: z-score vs non-targeting control 2.13; active.
Against EDEM3 (GeneID 80267) the deposit lists z-score vs non-targeting control -1.89; active.
With knock-down of OR5J2 (GeneID 282775) the results were z-score vs non-targeting control -1.27; active.
For GGA1 (GeneID 26088), the entry reads z-score vs non-targeting control -1.51; active.
Against ZBTB46 (GeneID 140685) the deposit lists z-score vs non-targeting control -0.361; inactive.
For PLCL2 (GeneID 23228) the deposit lists z-score vs non-targeting control 0.953; inactive.
Against ELF2 (GeneID 1998), the values are z-score vs non-targeting control -0.757; inactive.
Silencing of HPS6 (GeneID 79803) gave: z-score vs non-targeting control -0.0685; inactive.
After knock-down of CSN2 (GeneID 1447), the record shows z-score vs non-targeting control -0.891; inactive.
After knock-down of NFYA (GeneID 4800), the record shows z-score vs non-targeting control -1.74; active.
Knock-down of IL17RE (GeneID 132014) resulted in: z-score vs non-targeting control -0.0382; inactive.
Against CD93 (GeneID 22918), the entry reads z-score vs non-targeting control 1.41; active.
For TASL (GeneID 80231), the values are z-score vs non-targeting control -0.825; inactive.
With knock-down of OR8D1 (GeneID 283159), the screen gave z-score vs non-targeting control 0.246; inactive.
RNASE3 (GeneID 6037) showed z-score vs non-targeting control 0.823; inactive.
Against PCDHGB6 (GeneID 56100), the values are z-score vs non-targeting control -0.446; inactive.
Silencing of COX7B (GeneID 1349) came out at: z-score vs non-targeting control 0.691; inactive.
RFX5 (GeneID 5993) scored z-score vs non-targeting control -0.8; inactive.
Against PCIF1 (GeneID 63935) the deposit lists z-score vs non-targeting control -1.46; active.
For ZNF33B (GeneID 7582) the deposit lists z-score vs non-targeting control -1.41; active.
MTRFR (GeneID 91574) gave z-score vs non-targeting control 2.17; active.
After knock-down of HCAR3 (GeneID 8843), the record shows z-score vs non-targeting control 1.62; active.
POP5 (GeneID 51367) showed z-score vs non-targeting control 1.87; active.
SDE2 (GeneID 163859) scored z-score vs non-targeting control -1.35; active.
With knock-down of FGF16 (GeneID 8823), the record shows z-score vs non-targeting control 0.821; inactive.
GNB1 (GeneID 2782) gave z-score vs non-targeting control 1.72; active.
PEX19 (GeneID 5824) showed z-score vs non-targeting control -0.168; inactive.
Against SERPINB11 (GeneID 89778) the deposit lists z-score vs non-targeting control 1.35; active.
Knock-down of SLC38A3 (GeneID 10991) resulted in: z-score vs non-targeting control -1.08; active.

4 entries already listed, sorted by “z-score vs non-targeting control”, lowest first:
NFYA (GeneID 4800) → z-score vs non-targeting control: -1.74; activity call: active
CSN2 (GeneID 1447) → z-score vs non-targeting control: -0.891; activity call: inactive
IL17RE (GeneID 132014) → z-score vs non-targeting control: -0.0382; activity call: inactive
CD93 (GeneID 22918) → z-score vs non-targeting control: 1.41; activity call: active
